A mixed list of measured activities; the numbers were collected in NIAID ChemDB.

Common to all: whole-cell or culture tests

Neighbouring rows are from separate reports. Fold resistance has wild type as its base. Inhibition is in % at the dose shown (toxicity tests: loss of growth or viability). Blank or dashed fields: not listed here. ECn: concentration that inhibits the pathogen or its effect by n%. MIC50, MIC90 and the like: level of inhibition, or share of isolates inhibited.

SMILES,organism,strain,changes,cells,method,measure,tested at,result
N#Cc1cc2[nH]c3ccccc3c2n(-c2ccc([N+](=O)[O-])cc2)c1=O,HIV-1,NNRTI-resistant,RT-K103N V108I,HeLa,luciferase,EC50,,0.19 µM
Cc1ccc(C(=O)Nc2ccc(S(=O)(=O)O)c3cc(S(=O)(=O)O)cc(S(=O)(=O)O)c23)cc1NC(=O)c1cccc(NC(=O)Nc2cccc(C(=O)Nc3cc(C(=O)Nc4ccc(S(=O)(=O)O)c5cc(S(=O)(=O)O)cc(S(=O)(=O)O)c45)ccc3C)c2)c1,West Nile virus,NEW YORK,,VERO,cytopathic effect / visual reading,EC50,,119 µg/mL
NC(=O)c1ncn([C@@H]2O[C@H](CO)[C@@H](O)[C@H]2O)c1O,Respiratory syncytial virus,TYPE A/NS-100,,HeLa,plaque count,EC50,,2.6 µg/mL
NC(=O)c1csc([C@@H]2O[C@H](COP(=O)(O)CP(=O)(O)OC[C@H]3O[C@@H](n4cnc5c(N)ncnc54)[C@H](O)[C@@H]3O)[C@@H](O)[C@H]2O)n1,West Nile virus,NEW YORK,,VERO,cytopathic effect,EC50,,125 µg/mL
Nc1ccn([C@@H]2O[C@H](CO)[C@@H](O)[C@@H]2O)c(=O)n1,Cryptosporidium parvum,,,,,inhibition,10 µg/mL,90%
Nc1nccc2c1ncn2[C@@H]1C[C@H](CO)[C@@H](O)[C@H]1O,Sindbis virus,,,VERO,cytopathic effect,EC50,,>400 µg/mL
CN(C)[C@@H]1C(=O)C(C(N)=O)=C(O)[C@@]2(O)C(=O)C3=C(O)c4c(O)c(NC(=O)CNC(F)(F)F)cc(F)c4C[C@H]3C[C@@H]12,Enterococcus faecalis,159-tet,,,agar diffusion,EC50,,4 µg/mL
Nc1ccn(C[C@@H](CO)OCP(=O)(O)O)c(=O)n1,Human herpesvirus 6,GS,,HSB-2,antigen / flow cytometry,EC50,,11 µM
COc1c(N2C[C@@H]3CCCN[C@@H]3C2)c(F)cc2c(=O)c(C(=O)O)cn(C3CC3)c12,Staphylococcus aureus,24 strains (ofloxacin-susceptible),,,,MIC90,,0.12 µg/mL
NC(=O)c1csc([C@@H]2O[C@H](CO)[C@@H](O)[C@H]2O)n1,West Nile virus,NEW YORK,,VERO,cytopathic effect,EC50,,307 µg/mL
N[C@@H]1CN(c2c(F)cc3c(=O)c(C(=O)O)cn([C@@H]4C[C@@H]4F)c3c2Cl)CC12CC2,Staphylococcus aureus,25 strains (ofloxacin-resistant),,,,MIC90,,4 µg/mL
C#C[C@]1(CO)O[C@@H](n2cnc3c(N)nc(F)nc32)C[C@@H]1O,SIV,,,PBMC,p27 / ELISA,EC50,,0.00004 µM
Nc1nc2c(ncn2COCCO)c(=O)[nH]1,Cryptosporidium parvum,,,,,inhibition,25 µg/mL,0%
Nc1ncnc2c1ncn2C[C@H](CO)OCP(=O)(O)O,Adenovirus,Chicago (type 1),,,cytopathic effect,EC50,,4 µg/mL
COc1c(N2CCNC(C)C2)c(F)cc2c(=O)c(C(=O)O)cn(C3CC3)c12,Staphylococcus aureus,25 strains (methicillin-susceptible),,,,MIC90,,0.25 µg/mL
Nc1nccc2c1ncn2[C@@H]1C=C(CO)[C@@H](O)[C@H]1O,West Nile virus,NEW YORK,,VERO,cytopathic effect / visual reading,EC50,,>100 µg/mL
C[C@H](Cn1cnc2c(N)ncnc21)OCP(=O)(O)O,Reovirus,TYPE 1,,,cytopathic effect,EC50,,>525 µM
C#C[C@]1(CO)O[C@@H](n2cnc3c(N)nc(F)nc32)CC1O,HIV-2,ROD9,Q151M,MAGIC-5A,β-galactosidase / absorbance,fold resistance,,1
Nc1nc2c(ncn2COCCO)c(=O)[nH]1,Adenovirus,TYPE 2,,HEL,cytopathic effect,EC50,,>1000 µM
Nc1ncnc2c1ncn2C[C@@H](CO)OCP(=O)(O)O,Semliki Forest virus,,,,cytopathic effect,EC50,,>50 µM
Cc1cn([C@H]2C[C@H](N=[N+]=[N-])[C@@H](CO)O2)c(=O)[nH]c1=O,HIV-1,Recombinant,RT-V118I M184V,HeLa,luciferase,fold resistance,,0.4
C[C@@H]1CN(c2c(F)c(N)c3c(=O)c(C(=O)O)cn(C4CC4)c3c2F)C[C@H](C)N1,Staphylococcus aureus,24 strains (ofloxacin-susceptible),,,,MIC50,,0.06 µg/mL
NC12CC3CC(CC(C3)C1)C2,Cryptosporidium parvum,,,,,inhibition,10 µg/mL,2%
CC(C)(CO)C(=O)SCCOP(=O)(NCc1ccccc1)OC[C@H]1O[C@@H](n2cnc3c(=O)[nH]c(N)nc32)[C@](C)(O)[C@@H]1O,Hepatitis C virus,GT1b,Y93N,Replicon cells,replicon,fold resistance,,0.69
Nc1ncnc2c1ncn2C[C@@H](CO)OCP(=O)(O)O,Adenovirus,TYPE 2,,HEL,cytopathic effect,EC50,,0.66 µM
Nc1cc(OCCOCP(=O)(O)O)nc(N)n1,Reovirus,TYPE 1,,,cytopathic effect,EC50,,>190 µM
COC(=O)Nc1nc2ccccc2[nH]1,Cryptococcus neoformans,IU4,,,,EC50,,2 µg/mL
Clc1ccc([Se][Se]c2ccc(Cl)cc2)cc1,Candida dubliniensis,,,,broth dilution,MFC,,>64 µg/mL
Cc1c(N2C[C@@H](F)[C@@H](C3(N)CC3)C2)c(F)c(N)c2c(=O)c(C(=O)O)cn([C@@H]3C[C@@H]3F)c12,Staphylococcus aureus,25 strains (ofloxacin-resistant),,,,MIC90,,0.25 µg/mL
COC(=O)Nc1nc2ccc(Sc3ccccc3)cc2[nH]1,Cryptococcus neoformans,IU4,,,,EC50,,<0.028 µg/mL
Nc1ncn([C@@H]2O[C@H](CO)[C@@H](O)[C@H]2O)c(=O)n1,West Nile virus,NEW YORK,,VERO,cytopathic effect,EC50,,>565 µg/mL
C[C@H](Cc1ccc(O)c(O)c1)[C@@H](C)Cc1ccc(O)c(O)c1,Candida kefyr,CCC 123-2000,,,broth dilution,MIC100,,250 µg/mL
Nc1ccn(C[C@H]2COP(=O)(O)CO2)c(=O)n1,Adenovirus,TYPE 2,,HEL,PCR,EC50,,4.1 µM
Cc1cn([C@H]2C[C@H](N=[N+]=[N-])[C@@H](CO)O2)c(=O)[nH]c1=O,HIV-2,ROD9,,MAGIC-5A,β-galactosidase / absorbance,EC50,,0.028 µM
Nc1nc2c(ncn2CC[C@@H](O)CO)c(=O)[nH]1,Human herpesvirus 6,GS,,HSB-2,cytopathic effect,EC50,,>200 µM
Nc1ccn([C@@H]2C=C(CO)[C@@H](O)[C@@H]2O)c(=O)n1,West Nile virus,NEW YORK,,VERO,cytopathic effect / visual reading,EC50,,0.9 µg/mL
Cc1onc(-c2ccccc2)c1C(=O)N[C@@H]1C(=O)N2[C@@H]1SC(C)(C)[C@@H]2C(=O)O,Staphylococcus aureus,25 strains (ofloxacin-resistant),,,,MIC90,,>128 µg/mL
NC(=O)c1ncn([C@@H]2O[C@H](CO)[C@@H](O)[C@H]2O)n1,Cryptosporidium parvum,,,,,inhibition,10 µg/mL,60%
N[C@@H](C(=O)N[C@@H]1C(=O)N2C(C(=O)O)=C(Cl)CS[C@H]12)c1ccccc1,Haemophilus influenzae,38 strains (ampicillin-susceptible),,,,MIC90,,32 µg/mL
Nc1ncnc2c1ncn2C[C@H]1COP(=O)(O)CO1,Human herpesvirus 6,GS,,HSB-2,cytopathic effect,EC50,,42 µM
C[C@@H]1[C@H](O)[C@@H](C)/C=C/C=C/CC/C=C/C=C/C=C/C=C/C(O[C@H]2O[C@H](C)[C@@H](O)[C@H](N)[C@@H]2O)CC2O[C@](O)(CC(O)C(O)CCC(O)CC(O)CC(O)CC(=O)O[C@H]1C)CC(O)C2C(=O)O,Candida krusei,LM 120,,,broth dilution,MFC100,,64 µg/mL
Cn1c2ccccc2c2c1cc(C#N)c(=O)n2-c1ccc([N+](=O)[O-])cc1,HIV-1,NRTI resistant,RT-D67N T69N M184V T215F K219Q,HeLa,luciferase,fold resistance,,1.9
O=c1[nH]cnc2c([C@@H]3O[C@H](CO)[C@@H](O)[C@H]3O)[nH]nc12,West Nile virus,NEW YORK,,VERO,cytopathic effect / visual reading,EC50,,>25 µg/mL
CO[C@H]1/C=C/O[C@@]2(C)Oc3c(C)c(O)c4c(O)c(c5c(c4c3C2=O)NC2(CCN(CC(C)C)CC2)N=5)=NC(=O)/C(C)=C\C=C\[C@H](C)[C@H](O)[C@@H](C)[C@@H](O)[C@@H](C)[C@H](OC(C)=O)[C@@H]1C,Staphylococcus aureus,16 strains (methicillin- quinolone-resistant),,,,MIC50,,0.0313 µg/mL
O=c1[nH]c(=O)n([C@@H]2O[C@H](CO)[C@@H](O)[C@H]2O)[nH]c1=S,West Nile virus,Uganda,,VERO,cytopathic effect / visual reading,EC50,,100 µg/mL
Nc1ncnc2c1ncn2[C@@H]1C=C(CO)[C@@H](O)[C@H]1O,Rotavirus A,,,MA-104,virus yield,EC90,,0.2 µg/mL
Nc1nc(N)c2ncn(CCOCP(=O)(O)O)c2n1,Human herpesvirus 6,GS,,HSB-2,antigen / flow cytometry,EC50,,9.1 µM
Nc1nc2c(ncn2CCOCP(=O)(O)O)c(=O)[nH]1,Parainfluenza virus,SF (TYPE 5),,,virus yield,EC90,,3 µg/mL
Cc1cn([C@H]2C[C@H](N=[N+]=[N-])[C@@H](CO)O2)c(=O)[nH]c1=O,Cryptosporidium parvum,,,,,inhibition,100 µg/mL,13%
CC(=O)OC[C@H]1O[C@@H](n2ncc(=O)[nH]c2=O)[C@H](OC(C)=O)[C@@H]1OC(C)=O,West Nile virus,NEW YORK,,VERO,cytopathic effect / visual reading,EC50,,3 µg/mL
C=CCc1ccc(O)c(-c2ccc(O)c(CC=C)c2)c1,Candida albicans,YL 360,,,broth dilution,MIC,,64 µg/mL
CCCOc1ccc2nc(NC(=O)OC)[nH]c2c1,Cryptococcus neoformans,ATCC 14116,,,,EC90,,2.1 µg/mL
Nc1ccn(C[C@@H](CO)OCP(=O)(O)O)c(=O)n1,Adenovirus,adenoid 75 (TYPE 5),,,cytopathic effect,EC50,,45 µg/mL
Nc1ccn([C@H]2CC[C@@H](CO)O2)c(=O)n1,Adenovirus,TYPE 2,,HEL,PCR,EC50,,3.3 µM
Nc1ncc2c(ncn2COC(CO)CO)n1,Human herpesvirus 6,GS,,HSB-2,antigen / flow cytometry,EC50,,0.02 µM
Nc1ccn([C@@H]2CS[C@H](CO)O2)c(=O)n1,Adenovirus,TYPE 2,,HEL,cytopathic effect,EC50,,>250 µM
c1ccc([Se][Se]c2ccccc2)cc1,Candida lusitaniae,ATCC 66035,,,broth dilution,MIC,,4 µg/mL
CO[C@H]1/C=C/O[C@@]2(C)Oc3c(C)c(O)c4c(=O)c(c5oc6cc(N7CCN(CC(C)C)CC7)cc(=O)c6nc5c4c3=C2O)NC(=O)/C(C)=C\C=C\[C@H](C)[C@H](O)[C@@H](C)[C@@H](O)[C@@H](C)[C@H](OC(C)=O)[C@@H]1C,Staphylococcus aureus,20 strains (methicillin-susceptible),,,,MIC50,,0.0078 µg/mL
CC(=O)NC[C@H]1CN(c2ccc(N3CCOCC3)c(F)c2)C(=O)O1,Streptococcus pneumoniae,Penicillin-susceptible,,,,MIC90,,1 µg/mL
NC(=O)c1nc(F)c[nH]c1=O,Influenza A virus,H1N1 NWS/33,,MDCK,plaque count,EC50,,0.091 µg/mL

A second listing of 7 rows from above:

{"SMILES": "Cc1cn([C@H]2C[C@H](N=[N+]=[N-])[C@@H](CO)O2)c(=O)[nH]c1=O", "organism": "HIV-2", "strain": "ROD9", "cells": "MAGIC-5A", "method": "β-galactosidase / absorbance", "measure": "EC50", "result": "0.028 µM"}
{"SMILES": "C#C[C@]1(CO)O[C@@H](n2cnc3c(N)nc(F)nc32)CC1O", "organism": "HIV-2", "strain": "ROD9", "changes": "Q151M", "cells": "MAGIC-5A", "method": "β-galactosidase / absorbance", "measure": "fold resistance", "result": "1"}
{"SMILES": "NC12CC3CC(CC(C3)C1)C2", "organism": "Cryptosporidium parvum", "measure": "inhibition", "tested at": "10 µg/mL", "result": "2%"}
{"SMILES": "Nc1nccc2c1ncn2[C@@H]1C[C@H](CO)[C@@H](O)[C@H]1O", "organism": "Sindbis virus", "cells": "VERO", "method": "cytopathic effect", "measure": "EC50", "result": ">400 µg/mL"}
{"SMILES": "Nc1nccc2c1ncn2[C@@H]1C=C(CO)[C@@H](O)[C@H]1O", "organism": "West Nile virus", "strain": "NEW YORK", "cells": "VERO", "method": "cytopathic effect / visual reading", "measure": "EC50", "result": ">100 µg/mL"}
{"SMILES": "Nc1ccn([C@@H]2O[C@H](CO)[C@@H](O)[C@@H]2O)c(=O)n1", "organism": "Cryptosporidium parvum", "measure": "inhibition", "tested at": "10 µg/mL", "result": "90%"}
{"SMILES": "N#Cc1cc2[nH]c3ccccc3c2n(-c2ccc([N+](=O)[O-])cc2)c1=O", "organism": "HIV-1", "strain": "NNRTI-resistant", "changes": "RT-K103N V108I", "cells": "HeLa", "method": "luciferase", "measure": "EC50", "result": "0.19 µM"}